Pooled drug test results. Numbers come from NIAID ChemDB, via PubChem.

Shared fields: target-level tests; agent: HIV-1; target: Reverse transcriptase; method: nucleotide incorporation; measure: inhibition

Neighbouring rows are from separate reports.

SMILES | dose | result
N#CC1C=Cc2ccccc2N1C(=O)OC1CCCC1 | 50 µM | 43.2%
NOCc1c(F)cccc1Cl | 20 µg/mL | 0%
CCCCCCCCCCCCCCc1sc(NC(=O)NCCc2ccccc2)nc1-c1ccc(Cl)cc1 | 1 µg/mL | 1%
CCNc1cccnc1N1CCN(C(=O)c2cc3cc(C(=O)OCc4ccccc4)ccc3[nH]2)CC1 | 100 µM | 82–95%
C=C(C)C1C=C[C@@H](OC(=O)c2cccnc2)C23COC(C)(C(=O)[C@@]4(OC(C)=O)C[C@H](C)[C@H](OC(=O)CC)C4[C@H]2OC(=O)CCC)C13 | 200 µg/mL | 5.46%
N#CC1C=Cc2ccccc2N1C(=O)OCCBr | 50 µM | ≤30%
CCN1c2ncc(CCc3ccccc3)cc2-c2nnsc2-c2cccnc21 | 1 µM | 89%
COc1cc(Cc2nccc3cc(OC)c(OC)cc23)c(C(C)=O)cc1OC | 100 µM | 97%
CC(C)Nc1cccnc1N1CCN(C(=O)c2cc3cc(OCC(=O)O)ccc3[nH]2)CC1 | 100 µM | 78–95%
O=C(NCCc1ccccc1)Nc1ccccc1 | 0.1 µg/mL | 1%
N#CC1C=Cc2ccccc2N1S(=O)(=O)S(=O)(=O)c1ccccc1 | 50 µM | 47.8%
Fc1cccc(Cl)c1CCNC(=S)Nc1nccs1 | 10 µg/mL | 92%
C=C(C)C1C=C[C@@H](OC(=O)c2cccnc2)C23COC(C)(C(=O)[C@@]4(OC(C)=O)C[C@H](C)[C@H](OC(=O)CCC)C4[C@H]2OC(=O)CCC)C13 | 200 µg/mL | 92.7%
CCOC(=O)N1c2ccc([N+](=O)[O-])cc2C=CC1C#N | 50 µM | 48.9%
CCNc1cccnc1N1CCN(Cc2cc(C)c(SC)c(C)c2)CC1 | 100 µM | 30%
CC(C)Nc1cnccc1N1CCN(C(=O)c2cc3cc(F)ccc3[nH]2)CC1 | 100 µM | 63–92%
O=C(NCCc1ccccc1)Nc1ccn[nH]1 | 1 µg/mL | 8%
CC(C)Nc1cccnc1NCCNC(=O)c1cc2ccccc2[nH]1 | 100 µM | 2%
CCN1c2ncccc2-c2nnsc2-c2cccnc21 | 1 µM | 91%
O=C(OC1[C@H](O)CC(O)(C(=O)O)C[C@H]1O)c1cc(O)c(O)c(O)c1 | 20 µg/mL | 0%
O=C(NCCc1ccccc1)Nc1nc(C(F)(F)F)cs1 | 10 µg/mL | 73–75%
CCC(C)(C)c1cc2c(=O)cc(C(=O)OC)[nH]c2c2c(=O)cc(C(=O)OC)[nH]c12 | 100 µM | 40%
O=C(NCCc1ccccc1)Nc1nc(-c2ccc(Br)cc2)cs1 | 10 µg/mL | 1%
CC(C)Nc1cccnc1N(C)CCCCCCN(C)C(=O)c1cc2ccccc2[nH]1 | 100 µM | 84.5%
O=C(Nc1ccc(Cl)cc1)Nc1ccc(Nc2ccnc3cc(Cl)ccc23)cc1 | 100 µM | 38%
Cc1ccnc(NC(=O)NCCc2ccccc2)n1 | 1 µg/mL | 15%
CCOC(=O)N1c2ccccc2C=CC1C#N | 50 µM | 82.9%
O=C(OC1[C@H](O)CC(OC(=O)c2cc(O)c(O)c(O)c2)(C(=O)O)C[C@H]1O)c1cc(O)c(O)c(O)c1 | 20 µg/mL | 0%
CC(=O)N1c2ccccc2C=CC1C#N | 50 µM | ≤30%
COc1ccc2cc3[n+](cc2c1OC)CCc1cc2c(cc1-3)OCO2 | 100 µM | 47%
O=C(OC[C@H]1O[C@@H](OC(=O)c2cc(O)c(O)c(O)c2)[C@H](OC(=O)c2cc(O)c(O)c(O)c2)[C@@H](OC(=O)c2cc(O)c(O)c(O)c2)[C@@H]1OC(=O)c1cc(O)c(O)c(O)c1)c1cc(O)c(O)c(O)c1 | 20 µg/mL | 0%
N#CC1C=Cc2cc([N+](=O)[O-])ccc2N1C(=O)OCCCl | 50 µM | ≤30%
CCNc1cccnc1N1CCN(CCCc2cc(C)c(O)c(C)c2)CC1 | 100 µM | 23%
O=C(NCCc1ccccc1)Nc1nc2ccccc2s1 | 0.1 µg/mL | 39%
CC(C)Nc1cccnc1N(C)N(C)C(=O)c1cc2ccccc2[nH]1 | 100 µM | 12%
C=CCOC(=O)N1c2ccccc2C=CC1C#N | 50 µM | ≤30%
CCOC(=O)C(=O)Nc1nccc2ccccc12 | 100 µM | 28%

The last 2 rows once more:

SMILES | dose | result
C=CCOC(=O)N1c2ccccc2C=CC1C#N | 50 µM | ≤30%
CCOC(=O)C(=O)Nc1nccc2ccccc12 | 100 µM | 28%

a–b is a range or a potency band. Inhibition is in % at the dose shown (toxicity tests: loss of growth or viability).